Reference: PubChem BioAssay AID624099 (ICCB-Longwood, 2012)
Shown is an unselected part of about 21,000 reagents. In the full data, 497 (2.4%) were called active. 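Higher z means weaker E2 silencing; only reporter increases were scored, and knock-downs that hurt cell survival may mask genuine repressor factors.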 Reagents against one gene are numbered here.

Aim: 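Host factors E2 relies on to silence an HPV18 LCR reporter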 (primary screen)
Cells: human C33A cervical carcinoma cells (HPV-negative) stably expressing BPV1 E2 and an HPV18 LCR luciferase reporter
Reagents: siRNA pool against human genes, 40 nM
Time to read-out: 72 h
Read-out: 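HPV18 LCR reporter light per well, converted to plate-wise z-scores that exclude control wells, and averaged over triplicate plates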
Direction: mean z-score and z-score: higher = stronger reporter signal, weaker E2 silencing
Active means: 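Mean z ≥ 2 together with z ≥ 2 in two or more of the three replicates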

For AMIGO2, what does the deposit list?
mean z-score: 0.68; z-score, replicate A: 0.81; z-score, replicate B: 0.98; z-score, replicate C: 0.23; activity call: inactive

With ZSCAN25, what does the deposit list?
mean z-score: -1.05; z-score, replicate A: -1.16; z-score, replicate B: -1.19; z-score, replicate C: -0.81; activity call: inactive

What did the screen give for MMP20?
mean z-score: 0.87; z-score, replicate A: 0.6; z-score, replicate B: 0.74; z-score, replicate C: 1.28; activity call: inactive

With FZR1, what was measured?
mean z-score: 0.24; z-score, replicate A: 0.03; z-score, replicate B: 0.4; z-score, replicate C: 0.28; activity call: inactive

With RNF213 #1, how do the results read?
mean z-score: 0.12; z-score, replicate A: 0.21; z-score, replicate B: 0.23; z-score, replicate C: -0.09; activity call: inactive

For RNF213 #2, how do the results read?
mean z-score: 0.56; z-score, replicate A: 0.68; z-score, replicate B: 0.54; z-score, replicate C: 0.46; activity call: inactive

Which result is listed for CNN3?
mean z-score: -0.6; z-score, replicate A: -0.45; z-score, replicate B: -0.86; z-score, replicate C: -0.5; activity call: inactive

Single entries from the list:
For “z-score, replicate B”, ZSCAN25 reads -1.19
Value for AMIGO2 in “activity call”: inactive
Value for MMP20 in “activity call”: inactive
Entry for RNF213 #2 under “activity call”: inactive

The listing continues:
What is on record for SDR9C7?
mean z-score: -0.41; z-score, replicate A: -0.28; z-score, replicate B: -0.52; z-score, replicate C: -0.43; activity call: inactive

How did the screen score CNOT4?
mean z-score: 2.23; z-score, replicate A: 2.29; z-score, replicate B: 2.09; z-score, replicate C: 2.31; activity call: active

With FXYD7, how do the results read?
mean z-score: 1.25; z-score, replicate A: 1.51; z-score, replicate B: 1.18; z-score, replicate C: 1.05; activity call: inactive

With DDIT3, what was measured?
mean z-score: -0.57; z-score, replicate A: -0.46; z-score, replicate B: -0.97; z-score, replicate C: -0.27; activity call: inactive

With DNAJA3, how do the results read?
mean z-score: 0.04; z-score, replicate A: 0.37; z-score, replicate B: -0.29; z-score, replicate C: 0.05; activity call: inactive

For LOC388726 (retired record), what was measured?
mean z-score: -0.47; z-score, replicate A: -0.54; z-score, replicate B: -0.45; z-score, replicate C: -0.43; activity call: inactive

For CCIN, what was measured?
mean z-score: -0.07; z-score, replicate A: -0.01; z-score, replicate B: -0.36; z-score, replicate C: 0.16; activity call: inactive

What is on record for PDHX?
mean z-score: -0.24; z-score, replicate A: -0.34; z-score, replicate B: -0.19; z-score, replicate C: -0.2; activity call: inactive

How did the screen score MGC27382?
mean z-score: 0.36; z-score, replicate A: 0.67; z-score, replicate B: 0.02; z-score, replicate C: 0.38; activity call: inactive

What is on record for RTL8C?
mean z-score: 0.29; z-score, replicate A: 0.26; z-score, replicate B: 0.43; z-score, replicate C: 0.17; activity call: inactive

For RPL7, how do the results read?
mean z-score: -2.38; z-score, replicate A: -2.43; z-score, replicate B: -2.36; z-score, replicate C: -2.36; activity call: inactive

With RFXANK, what does the deposit list?
mean z-score: 0.59; z-score, replicate A: 0.42; z-score, replicate B: 0.5; z-score, replicate C: 0.86; activity call: inactive

With ST8SIA2, what was measured?
mean z-score: -0.43; z-score, replicate A: -0.37; z-score, replicate B: -0.54; z-score, replicate C: -0.37; activity call: inactive

For ENPP7, how do the results read?
mean z-score: 2.84; z-score, replicate A: 2.84; z-score, replicate B: 2.51; z-score, replicate C: 3.18; activity call: active
